Measurements taken from PMC10934024, “Protein–Ligand Binding and Structural Modelling Studies of Pheromone-Binding Protein-like Sol g 2.1 from Solenopsis geminata Fire Ant Venom” (Molecules, 2024).

System: Sol g 2 protein
Test: Binding assay: gel-filtration (P-2 gel) of crude venom, GC/MS of flow-through
Design: species or system Solenopsis geminata
Details: crude venom after P-2 gel-filtration column

With `CCCCCCCCCC` [decane, Decane] the “peak area ratios of ligands in flow-through (protein-bound fraction)” value (“peak area ratios … (protein-bound fraction)” below) was 45%.
With `CCCCCCCCCCCC` [dodecane, Dodecane] the “peak area ratios … (protein-bound fraction)” value was 15%.
With `CCCCCCCCCCCCC` [tridecane, Tridecane] the “peak area ratios … (protein-bound fraction)” value was 4%.
In the case of `CCCCCCCCCCC` [undecane, Undecane], the “peak area ratios … (protein-bound fraction)” value is reported as 36%.
